Results of unrelated studies side by side (data: NIAID ChemDB).

Common to all: whole-cell or culture tests; species: Hepatitis C virus; read-out: EC50

Blank or dashed fields: not listed here. a–b is a range or a potency band. Lines come from different laboratories, so protocols vary. ECn: concentration that inhibits the pathogen or its effect by n%.

SMILES,strain or isolate,method,value
CCS(=O)(=O)NC(=O)c1c(-c2ccc[nH]c2=O)c2c3occc3ccc2n1Cc1cc(F)ccc1F,-,replicon,<0.5 µM
CC1CCC(C(=O)N(c2cc(-c3ccc(NC(=O)c4cocn4)cc3)sc2C(=O)O)C(C)C)CC1,1a,replicon,>0.5 µM
Cn1cc(-c2ccc3nc(NCc4ccc(S(N)(=O)=O)cc4)nc(NCC(F)(F)F)c3n2)cn1,-,replicon,<0.1 µM
O=C(O)c1c(-c2ccc[nH]c2=O)c2c3occc3c(F)cc2n1Cc1ccc2nc(C(F)(F)F)[nH]c2c1,-,replicon,0.5–1.5 µM
NS(=O)(=O)c1ccc(CNc2nc(NCC(F)(F)F)c3nc(-c4cc[nH]c(=O)c4)ccc3n2)cc1,-,replicon,<0.1 µM
CC(=O)N1c2cccc(O)c2NC2=C(C(=O)CC(C)(C)C2)C1c1ccc(Cl)c(Cl)c1,1b,luciferase / reporter gene / replicon,4.9 µM
Cc1nn(C)c2nc(Cl)c(Cn3c(C(=O)O)c(-c4ccc[nH]c4=O)c4c5occc5c(F)cc43)cc12,-,replicon,<0.5 µM
Cn1cncc1C1Nc2cccc(O)c2NC2=C1C(=O)CC(C)(C)C2,1b,luciferase / reporter gene / replicon,>10 µM
O=C(NS(=O)(=O)C1CC1)c1c(-c2ccc[nH]c2=O)c2c3occc3c(F)cc2n1Cc1cc2c(=O)[nH]cnc2cc1F,-,replicon,<0.5 µM
Cc1cc(-c2cc(N(C(=O)C3CCC(C)CC3)C(C)C)c(C(=O)O)s2)cnc1NC(=O)c1ccc(F)cc1,1a,replicon,<0.5 µM
NC(=O)COc1ccc2c(c1)S(=O)(=O)N=C(c1c(O)c3cc(F)ccc3n(CCC3CC3)c1=O)N2,1b 45967,replicon,0.024 µM
COCC(=O)N1c2cccc(O)c2NC2=C(C(=O)CC(C)(C)C2)[C@@H]1c1ccc(OCc2ccccc2)cc1F,1b,luciferase / reporter gene / replicon,0.65 µM
NS(=O)(=O)c1ccc(CNc2nc(NCC(F)F)c3nc(-c4ccc(F)cc4)ccc3n2)cc1,-,replicon,<0.1 µM
CC1(C)CC(=O)C2=C(C1)Nc1c(O)cccc1N(C(=O)NCC(N)=O)C2c1ccc(OCc2ccccc2)cc1Cl,1b,luciferase / reporter gene / replicon,>100 µM
O=C(O)c1cccc(Cn2c(C(=O)O)c(-c3ccccc3F)c3c4ccccc4ccc32)c1,-,replicon,>10 µM
NC(=O)c1ccc(CNc2nc(NCC(F)(F)F)c3nc(-c4ccc(F)cc4)ccc3n2)cc1,-,replicon,<0.1 µM
COCCN(C(=O)C1CCC(C)CC1)c1cc(-c2ccc(NC(=O)c3cscn3)cc2)sc1C(=O)O,1b,replicon,<0.5 µM
CNC(=O)COC(=O)N1c2cccc(O)c2NC2=C(C(=O)CC(C)(C)C2)C1c1ccc(OCc2ccccc2)cc1Cl,1b,luciferase / reporter gene / replicon,5.8 µM
CC1CCC(C(=O)N(c2cc(-c3ccc(NC(=O)c4cnccn4)cc3)sc2C(=O)O)C(C)C)CC1,1b,replicon,<0.5 µM
CC1(C)CC(=O)C2=C(C1)Nc1c(O)cccc1N(C(=O)CCC(=O)N1CCCC1)C2c1ccc(OCc2ccccc2)cc1Cl,1b,luciferase / reporter gene / replicon,9.61 µM
NS(=O)(=O)c1ccc(CNc2nc(NCC(F)(F)F)c3nc(-c4ccc(O)cc4)ccc3n2)cc1,-,replicon,<0.1 µM
COc1ccc(C(=O)N2c3cccc(O)c3NC3=C(C(=O)CC(C)(C)C3)[C@@H]2c2ccc(OCc3ccccc3)cc2F)nc1Cl,1b,luciferase / reporter gene / replicon,1.03 µM
Cc1c(C(=O)Nc2ccc(-c3cc(N(C(=O)C4CCC(C)CC4)C(C)C)c(C(=O)O)s3)cc2)cnn1C,1a,replicon,>0.5 µM
C[C@@H]1COc2c1ccc1c2c(-c2ccc[nH]c2=O)c(C(=O)NS(C)(=O)=O)n1Cc1cc(F)ccc1F,-,replicon,<0.5 µM
CC1(C)CC(=O)C2=C(C1)Nc1c(O)cccc1N(C(=O)CCC(=O)Nc1ccc(-n3cccc3)cc1)[C@H]2c1ccc(OCc2ccccc2)cc1Cl,1b,luciferase / reporter gene / replicon,24.59 µM

Repeating the first 3 entries:

{"SMILES": "CCS(=O)(=O)NC(=O)c1c(-c2ccc[nH]c2=O)c2c3occc3ccc2n1Cc1cc(F)ccc1F", "method": "replicon", "value": "<0.5 µM"}
{"SMILES": "CC1CCC(C(=O)N(c2cc(-c3ccc(NC(=O)c4cocn4)cc3)sc2C(=O)O)C(C)C)CC1", "strain or isolate": "1a", "method": "replicon", "value": ">0.5 µM"}
{"SMILES": "Cn1cc(-c2ccc3nc(NCc4ccc(S(N)(=O)=O)cc4)nc(NCC(F)(F)F)c3n2)cn1", "method": "replicon", "value": "<0.1 µM"}